Pooled drug test results. Numbers come from NIAID ChemDB, via PubChem.

All rows: whole-cell or culture tests; agent: Coxsackie virus

a–b is a range or a potency band. ECn is the concentration giving n% inhibition of infection, replication or growth. Blank or dashed fields: not listed here. Inhibition is in % at the dose shown (toxicity tests: loss of growth or viability). Conditions beyond the fields shown may differ between rows.

compound	method	measure	tested at	cells	strain	result
CC(=O)OC1C=COC=C2C[C@@H]3C(=O)N4C5C(=COC=CC5OC(C)=O)C[C@H]4C(=O)N3C21		EC50		HeLa	TYPE A21	20 µg/mL
CCSc1nsc(-c2ccccc2)c1C#N	plaque count	EC50		HEP-2	TYPE B1	>100 µg/mL
C1CC2(CN1)C1CC3CC(C1)CC2C3		inhibition	100 µM	HeLa	TYPE A21	<20%
O=C1N2C3C(=COC=CC3O)CC23SSC12CC1=COC=CC(O)C1N2C3=O		EC50		HeLa	TYPE A21	0.007 µg/mL
NC(=O)c1csc([C@@H]2O[C@H](CO)[C@@H](O)[C@H]2O)n1	cytopathic effect	EC50		VERO	TYPE B1/HA201468	130 µg/mL
CCCSc1nsc(-c2ccccc2)c1C#N	plaque count	EC50		HEP-2	TYPE B1	>200 µg/mL
CC(=O)OC1C=COC=C2C[C@@]3(S)C(=O)N4C5C(=COC=CC5OC(C)=O)C[C@@]4(S)C(=O)N3C21		EC50		HeLa	TYPE A21	5.5 µg/mL
CCCSc1nsc(-c2ccccc2)c1C(N)=O	plaque count	EC50		HEP-2	TYPE B1	>300 µg/mL
NC12CC3CC(CC(C3)C1)C2		inhibition	100 µM	HeLa	TYPE A21	<20%
CN=C1NC(=O)C(Cc2c[nH]c3ccccc23)S1	plaque count	EC50		HeLa	TYPE B1	100 µg/mL
CN1C(=O)[C@]23CC4=CC=C[C@H](O)[C@H]4N2C(=O)[C@@]1(CO)SSSS3		EC50		HeLa	TYPE A21	0.8 µg/mL
CC1(Cn2cnc3c(N)ncnc32)CC1CO		EC50			TYPE B3	>100 µg/mL
CC(=O)OC1C=COC=C2C[C@@]3(O)C(=O)N4C5C(=COC=CC5OC(C)=O)C[C@@]4(S)C(=O)N3C21		EC50		HeLa	TYPE A21	121 µg/mL
N#Cc1c(SCCCBr)nsc1-c1ccccc1	plaque count	EC50		HEP-2	TYPE B1	>25 µg/mL
Nc1ncnc2c1ncn2[C@@H]1C=C(CO)[C@@H](O)[C@H]1O		MIC			TYPE B4	>10 µg/mL
C1CCC2(CC1)CCNC2		inhibition	100 µM	HeLa	TYPE A21	20–40%
N#Cc1c(N2CCCCC2)nsc1-c1ccccc1	plaque count	EC50		HEP-2	TYPE B1	>25 µg/mL
O=C1C=COC=C2C[C@@]34SS[C@]5(CC6=COC=CC(O)C6N5C3=O)C(=O)N4C12		EC50		HeLa	TYPE A21	0.06 µg/mL
CSc1nsc(-c2ccccc2)c1C(=O)O	plaque count	EC50		HEP-2	TYPE B1	>500 µg/mL
C=CCN1CCC2(C1)C1CC3CC(C1)CC2C3		inhibition	100 µM	HeLa	TYPE A21	40–70%
O=C1N(CCCCCOc2ccc(-c3ccc(Cl)cc3)cc2)CCN1c1ccncc1	plaque count	EC50		RD	TYPE B4	1.3 µM
N#Cc1c(N2CCOCC2)nsc1-c1ccccc1	plaque count	EC50		HEP-2	TYPE B1	>1 µg/mL
C[C@H](c1c[nH]c2ccccc12)[C@@H]1SC(=NCCO)NC1=O	plaque count	EC50		HeLa	TYPE B1	16 µg/mL